Reference: paper PMC4942610, “Exploration of acetanilide derivatives of 1-(ω-phenoxyalkyl)uracils as novel inhibitors of Hepatitis C Virus replication” (Scientific Reports, 2016)
Where “and” joins values, the source holds several entries; their conditions need not be identical. Equal values may be shown once.

Tested on: HCVcc gt 2a strain JFH-1
Test: HCVcc JFH-1 infection of Huh7-J20 reporter cells, second protocol (full life cycle), SEAP dose-response
Type: cell-based, Hepatitis C Virus
Conditions: for SI: ratio of CC50 on IC50, Huh7-J20, JFH-1; for increase of SI compared to Z436: from SI of Table 1

SMILES	SI	also measured
O=C(Cn1c(=O)ccn(CCCCCOc2ccc(Br)cc2)c1=O)Nc1ccc(Oc2ccc(F)cc2)cc1 [Z414]	48.612	increase of anti-HCV activity compared to Z263 (from IC50 of Table 1): ~5 fold
N#Cc1ccc(OCCCCCn2ccc(=O)n(CC(=O)Nc3ccc(Oc4ccccc4)cc3)c2=O)cc1 [Z434]	5.661	
O=C(Cn1c(=O)ccn(CCCCCCCCOc2ccc(Br)cc2)c1=O)Nc1ccc(Oc2ccccc2)cc1 [Z401]	> 200 and 244 and 244.238	
Cc1cn(CCCCCOc2ccc(Br)cc2)c(=O)n(CC(=O)Nc2ccc(Oc3ccccc3)cc2)c1=O [Z376]	31.761	
O=C(Cn1c(=O)ccn(CCCCCOc2ccc(Br)cc2)c1=O)Nc1ccc(C(=O)c2ccccc2)cc1 [Z430]	12.173	
O=C(Cn1c(=O)ccn(CCCCCOc2ccc(Br)cc2)c1=O)Nc1ccc(OCc2ccccc2)cc1 [Z377]	6.196	
O=C(Cn1c(=O)ccn(CCCCCCOc2ccc(Br)cc2)c1=O)Nc1ccc(Oc2ccccc2)cc1 [Z400]	> 200 and 273 and 273.569	
O=C(Cn1c(=O)ccn(CCCCCOc2ccc(Br)cc2)c1=O)Nc1ccc(Oc2ccc(Cl)cc2)cc1 [Z385]	> 100 and 101.145	increase of anti-HCV activity compared to Z263 (from IC50 of Table 1): 6 fold
O=C(Cn1c(=O)ccn(CCCCCOc2cccc(Br)c2)c1=O)Nc1ccc(Oc2ccccc2)cc1 [Z421]	38.548	increase of inhibitory activity compared to Z436 (from IC50 of Table 1): 3 times; increase of SI compared to Z436: 10 fold
O=C(Cn1c(=O)ccn(CCCCCOc2ccccc2)c1=O)Nc1ccc(Oc2ccccc2)cc1 [Z436]	3.595	
CN(C(=O)Cn1c(=O)ccn(CCCCCOc2ccc(Br)cc2)c1=O)c1ccc(Oc2ccccc2)cc1 [Z431]	5.348	
Cc1ccc(Oc2ccc(NC(=O)Cn3c(=O)ccn(CCCCCOc4ccc(Br)cc4)c3=O)cc2)cc1 [Z413]	87.166	increase of anti-HCV activity compared to Z263 (from IC50 of Table 1): 10 fold
O=C(Cn1c(=O)ccn(Cc2ccccc2)c1=O)Nc1ccc(Oc2ccccc2)cc1 [Z176]	13.174	
O=C(Cn1c(=O)ccn(CCCCCOc2ccc(Br)cc2)c1=O)Nc1ccc(Cc2ccccc2)cc1 [Z387]	> 100 and 185.482	
O=C(Cn1c(=O)ccn(CCCCOCc2ccc(Br)cc2)c1=O)Nc1ccc(Oc2ccccc2)cc1 [Z432]	14.942	
O=C(Cn1c(=O)ccn(CCCCCCc2ccccc2)c1=O)Nc1ccc(Oc2ccccc2)cc1 [Z437]	5.029	
O=C(Cn1c(=O)ccn(CCCCOc2ccc(Br)cc2)c1=O)Nc1ccc(Oc2ccccc2)cc1 [Z397]	20.715	
O=C(Cn1c(=O)c(I)cn(CCCCCOc2ccc(Br)cc2)c1=O)Nc1ccc(Oc2ccccc2)cc1 [Z439]	7.977	
O=C(Cn1c(=O)ccn(CCCCCOc2ccc(Br)cc2)c1=O)Nc1ccc(Oc2ccccc2)cc1 [Z263]	18.174	increase of SI compared to Z436: 5 fold
O=C(Cn1c(=O)ccn(CCCCCOc2ccc(-c3ccccc3)cc2)c1=O)Nc1ccc(Oc2ccccc2)cc1 [Z438]	5.534	
